Substitutions are numbered along the chain they refer to. Human monoclonal antibodies against the spike receptor-binding domain (heavy:light variable regions). IC50 against pseudoviruses bearing the spike of naturally observed variants; lower = stronger; >10 µg/ml means not reached at the top dose. No active / inactive call. The stated detection limit is 0.0005 µg/ml; values near or below 0.001 µg/ml lie at the floor of the assay.
How the values were obtained:
Assay in all cases: pseudovirus neutralization IC50; higher = weaker neutralization
[1] = target: SARS-CoV-2 Omicron BA.1 spike pseudovirus
Method: (§1)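 Single-round VSV luciferase pseudovirus mixed with antibody dilutions for 1 h and put on Huh-7 cells for about a day; IC50 from the dose curve.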

[2] = target: SARS-CoV-2 Omicron BA.2 spike pseudovirus
Method: as §1

[3] = target: SARS-CoV-2 Omicron BA.2.75 spike pseudovirus
Method: as §1

[4] = target: SARS-CoV-2 Omicron BA.5 spike pseudovirus
Method: as §1

[5] = target: SARS-CoV-2 Omicron BQ.1.1 spike pseudovirus
Method: as §1

[6] = target: SARS-CoV-2 Omicron XBB spike pseudovirus
Method: as §1

[7] = target: SARS-CoV-2 early D614G spike pseudovirus
Method: as §1

Measured: pseudovirus neutralization IC50

B1: BD55-6213 (protein)
chain 1: QVQLQQWGAGLLKPSETLSLTCAVSGGSFSGYYWSWIRQSPGKGLEWIGEINHSGSTNYNPSLKTRVTISVDRSKNQFSLELSSVTAADTAVYFCARVGRGYSGYDYYYYYFMDVWGKGNTVTVSS
chain 2: DNQMTQSPSSLSASVGDRVTITCRASQNLTRNLNWYQQKTGEAPKLLIYAASSLQSGVPSRFSGSGSGTDFTLTISSLQPEDFATYYCQQSYSPNTFGQGTKLEI
2.06 µg/mL: [7]
2.42 µg/mL: [4]
> 10 µg/mL: [5] | [6]
4.52 µg/mL: [1]
5.13 µg/mL: [3]
4.77 µg/mL: [2]

B2: BD55-6211 (protein)
chain 1: QVQLVQSGAEVKKPGASVKVSCKASEYSFSTYDINWVRQATGQGLEWMGWMNPTSGDAGYAHKFQGRVILTRETSIRTAYMELSSLTSEDTAVYYCATGPRAMIGFDNWLDPWGQGTLVTVSS
chain 2: DIQMTQSPSSLSASVGDRVTITCRASQSISSYLNWYRQIPGKAPKLLIYAASTLQRGVPSSFSGSGSGTDFTLTINNLQPEDFAIYYCQQSYSTPYTFGQGTKLEIK
5.87 µg/mL: [7]
> 10 µg/mL: all other assays above

B3: BD55-6202 (protein)
chain 1: QVQLVESGGGVVQPGRSLRLSCAASGFTFSTYGMHWVRQAPGKGLEWVALIWNDGSKTYYADSVKGRLTISRDNSKNTVYLQMNSLRAEDTAVYYCARDSQCSGGNCYFDYNWFDAWGQGTLVTVSS
chain 2: EIVLTQSPATLSLSPGERATLSCRASQSVSRHLAWYQQKPGQAPRLLIYDASNRATGIPARFSGSGSGTDFTLTISSLEPEDFAVYYCQQRYTWPPAYTFGQGTKLQIK
> 10 µg/mL: all assays above

B4: BD55-6190 (protein)
chain 1: EVQLVESGGGLVQPGGSLRLSCVTSGFTFSNYAMNWVRQAPGKGLEYVSVIGSNGGRTYYANSMKDRFTISRDNSKNTLYLQMGSLKAEDMAVYYCARGPEEVTGYDFWTGYSDYWGQGTLVTVSS
chain 2: QSVLTQPPSVSGAPGQRVTISCTGSSSNIGAGYDVHWYQQFPGTAPKLLILGNTNRPSGVPDRFSGSKSDTSASLAITGLQAEDEAAYYCQSFDSSLSGFWVFGGGTKLTVL
1.28 µg/mL: [1]
0.0583 µg/mL: [7]
> 10 µg/mL: all other assays above

B5: BD55-6192 (protein)
chain 1: QVQLLESGPGLVKPSETLSLTCSVSGGYISQYYWNWIRQTPGKGLEWIGHIFYSGSTNYIPSLESRVTISVDTSKNQFSLKLKSVTAADTAVYYCAREVQWLGPGAFDIWGQGKMVTVSS
chain 2: EMVLTQSPGTLSLSPGERATLSCRASQSVNSNYLAWYQQKPGQAPRLLISGASDRATGIPDRFSGSGSGTDFTLTISRVEPEDFAVYYCQQYGSSPLVTFGQGTKVEVK
> 10 µg/mL: all assays above

B6: BD55-6195 (protein)
chain 1: QITLRESGPTLVKPTQTLTLTCTFSGFSLSTTEMGVGWIRQPPGKALEWLALIYWHDDKRFNPSLKSRLTITKDTSKNQVVLTMTNMDPVDTATYYCARWYFDISTGGVYYMDIWGNGITVTVSS
chain 2: DIVMTQTPLSSPVTLGQPASISCRSSQSLVHSDGNTFLSWLQQRPGQPPRLLIYKISNRVPGVPDRFSGSGAGTDFTLKISRVEAEDVGIYYCMQATQFPHEMYTFGQGTRLEIK
0.0147 µg/mL: [7]
4.09 µg/mL: [1]
> 10 µg/mL: all other assays above

B7: BD55-6204 (protein)
chain 1: QITLKESGPTLVKPTQTLTLTCTFSGFSLTTSGVGVGWIRQPPGKALEWLALIYGDDDKRYSPSLKSRLTITKDTSKNQVVLIMTNMDPVDTATYYCAHRPAGGYDVLTGYYRVVVPLFDYWGQGTLVTVSS
chain 2: QSVLTQPPSASGIPGQRVTISCSGSSSNIGGNPVDWYQQLPGTAPKLLNYNDNQRPLGVPDRFSGSKSGTSASLAISGLQSEDEAEYYCAAWDDSLNGPVFGGGTKLTVL
> 10 µg/mL: all assays above

B8: BD55-6205 (protein)
chain 1: DVQLVESGGGLVQPGGSLRLSCAASGFTFSSYALHWVRQAPGKGLEYVSSITRDGVGTFYADSLKGRFTISRDNSKNTVYLQMGSLRADDMAVYYCAREARDQIDVVLDFWGQGTPVTVSS
chain 2: DIQMTQSPSSLSASVGDRVTITCRASQTISRYLNWYQHKPGKVPKLLIYAASRLQSGVPSRFSGSGSGTDFTLTISSLQPEDFATYYCQQSYTSPEYTFGQGTKLEIK
> 10 µg/mL: all assays above

B9: BD55-6216 (protein)
chain 1: QEQLVQSGAEVRKPGASVKVSCKASGYAFINYEINWVRQSTGQGLEWLGRMNPSSGSTDYAHKFQGRVFMTSDTSVNTAYMELTSLRSEDTAVYYCARESTGGYYYYYDMDVWGQGTTVIVSS
chain 2: DIQMTQSPSALSASVGDRVTITCRASQSISTSVNWYQQKPGKAPKFLIYDGSTLQSGVPSRFSGSGSGTEFTLTISSLQPEDFATYFCQQSYSFPPTFGPGTKVDIK
> 10 µg/mL: all assays above

B10: BD55-6185 (protein)
chain 1: QITLKESGPTLVKPTQTLTLTCTFSGFSLNTRGVSVGWIRQPPGKALEWLALIYWDDDRRYSPSLKSRLTIIKDTSTNQVVLTMTNMDPVDTATYYCARAYDFYDSIGYYSGYYFDYWGQGTLVTVSS
chain 2: QSVLTQPPSVSGAPGQRVTISCTGSSSNNGAVFDVHWYQQLPGSAPKLVIYGNNNRPSGVPDRFSGSKSGTSASLAITGLQAEDEADYYCHSYDSSLSGPLFGGGTKLTVL
> 10 µg/mL: all assays above

B11: BD55-6206 (protein)
chain 1: QLQLQESGPGLVKPSETLSLTCTVSGGSISSSSYYWGWIRQPPGKGLEWIGSIYYSGSTYYNPSLKSRVTISVDTSKNQFSLKLSSVTAADTAVYSCARHLGGDREERLASPWYDYYTGGHFDLWGRGTLVTVSS
chain 2: B10 chain 2 with N29I, V32G, F33Y, S44T, V49L, N54S, F64L, H91Q, P100W, L101V
0.299 µg/mL: [1]
0.0154 µg/mL: [7]
> 10 µg/mL: all other assays above

B12: BD55-1179 (protein)
chain 1: QVHLQESGPRLVRPSQTLSLTCTVSGGSVSSNGHYWTWMRQHPGKGLEWIGNIYYSGSTHYNPSLKSRVTISVDTSKDEFSLKVTSMTVADTAVYFCARELVATGQFHYWGQGILVSVSS
chain 2: DIQMTQSPSSLSVSVGDRVTITCQASQDITNHLNWYQQKAGKAPNLLIYDASDLETGVPSRFSGRGSGTEFTFTISSLQPEDIATYYCQQFDNLPYTFGQGTKLEMK
> 10 µg/mL: all assays above
